A mixed list of measured activities; the numbers were collected in NIAID ChemDB.

Common to all: growth or infection tests; organism: HIV-1; method: p24 / ELISA; endpoint: EC50

ECn: concentration that inhibits the pathogen or its effect by n%.

{"SMILES": "CN(C)c1cncc2sc(C(N)=O)c(N)c12", "cells": "U1", "value": "0.45 µM"}
{"SMILES": "O=c1[nH]cnc2c1ncn2C1CC[C@@H](CO)O1", "cells": "Primary T lymphocytes", "mutations": "A62V V75I F77L F116Y Q151M", "value": "40.5 µM"}
{"SMILES": "NC(=O)c1cc2c(-c3cnc4ccccc4c3)cncc2s1", "cells": "Jurkat cells", "strain": "NL4-3", "value": "0.0064 µM"}
{"SMILES": "COC(=O)N[C@H](C(=O)N[C@@H](Cc1ccccc1)[C@@H](O)CN(Cc1ccc(-c2ccccn2)cc1)NC(=O)[C@@H](NC(=O)OC)C(C)(C)C)C(C)(C)C", "cells": "MT-2", "strain": "IIIB", "mutations": "K112M K113E V128I", "value": "0.0012 µM"}
{"SMILES": "Cc1cc(C)cc([C@]23SCCN2C(=O)c2ccccc23)c1", "cells": "PBMC", "strain": "D148/86", "value": "0.009 µM"}
{"SMILES": "Cc1cn([C@H]2C=C[C@@H](CO)O2)c(=O)[nH]c1=O", "cells": "Primary T lymphocytes", "mutations": "A62V V75I F77L F116Y Q151M", "value": "6.8 µM"}
{"SMILES": "CCCCCCCCCCCCCCCCCCCCCCC(=O)O[C@@H]1[C@@H](C)[C@@]2(O)[C@@H](C=C(COC(C)=O)C[C@]3(O)C(=O)C(C)=C[C@@H]23)[C@@H]2C(C)(C)[C@]12O", "cells": "PBMC", "strain": "KM018", "value": "0.106 µM"}
{"SMILES": "Cc1cc(=O)c2ccc(N=C=S)cc2o1", "cells": "PBMC", "strain": "NL4-3", "value": "0.1925 µM"}
{"SMILES": "Cc1ccc(S(=O)(=O)N(CC(C)C)C[C@@H](O)[C@H](Cc2ccccc2)NC(=O)O[C@H]2CO[C@H]3OCC[C@H]32)cc1", "cells": "MT-2", "strain": "IIIB", "mutations": "K112M K113E V128I M200I H219P I401T R409K D437N L441P R41K", "value": "0.008 µM"}
{"SMILES": "NC(=O)c1sc2cncc(N3CCC(F)(F)CC3)c2c1N", "cells": "U1", "value": "0.219 µM"}
{"SMILES": "Nc1nc(=O)n([C@@H]2CS[C@H](CO)O2)cc1F", "cells": "Primary T lymphocytes", "mutations": "4xAZT", "value": "0.2 µM"}
{"SMILES": "NC(=O)c1sc2cncc(N3CCc4ccccc4C3)c2c1N", "cells": "U1", "value": "0.013 µM"}
{"SMILES": "O=C1c2ccccc2C2(c3ccccc3)SCCN12", "cells": "PBMC", "strain": "D148/86", "value": "0.643 µM"}
{"SMILES": "Cc1cn([C@H]2C[C@H](N=[N+]=[N-])[C@@H](CO)O2)c(=O)[nH]c1=O", "cells": "TZM-bl", "strain": "CE1176", "value": "0.02823 µM"}
{"SMILES": "Cc1cn([C@H]2C[C@H](N=[N+]=[N-])[C@@H](CO)O2)c(=O)[nH]c1=O", "cells": "PBMC", "strain": "93BR021", "value": "0.0185 µM"}
{"SMILES": "CCOP(=O)(COc1ccc(C[C@H](NC(=O)O[C@H]2CO[C@H]3OCC[C@H]32)[C@H](O)CN(CC(C)C)S(=O)(=O)c2ccc(OC)cc2)cc1)OCC", "cells": "MT-2", "strain": "IIIB", "mutations": "M200I", "value": "0.008 µM"}
{"SMILES": "CC(C)n1nc(-c2ccc3oc(N)nc3c2)c2c(N)ncnc21", "cells": "PBMC", "strain": "93UG082", "value": "0.00289 µM"}
{"SMILES": "NC(=O)c1cc2c(-c3ccc4ccccc4c3)cncc2s1", "cells": "U1", "value": "0.0089 µM"}
{"SMILES": "Cc1ccnc2c1NC(=O)c1cccnc1N2C1CC1", "cells": "C8166", "strain": "NL4-3", "mutations": "V106A", "value": "23.5 µM"}

Conditions beyond the fields shown may differ between rows.